Data published in PMC3328272, “HIV-1 Nef interaction influences the ATP-binding site of the Src-family kinase, Hck” (BMC Chemical Biology, 2012).

Sequences of proteins named here, by UniProt entry; tags and fusion partners are left off. Residues count along the entry.
UniProt P08103, 76-524 Q521E/Q522E/Q523I: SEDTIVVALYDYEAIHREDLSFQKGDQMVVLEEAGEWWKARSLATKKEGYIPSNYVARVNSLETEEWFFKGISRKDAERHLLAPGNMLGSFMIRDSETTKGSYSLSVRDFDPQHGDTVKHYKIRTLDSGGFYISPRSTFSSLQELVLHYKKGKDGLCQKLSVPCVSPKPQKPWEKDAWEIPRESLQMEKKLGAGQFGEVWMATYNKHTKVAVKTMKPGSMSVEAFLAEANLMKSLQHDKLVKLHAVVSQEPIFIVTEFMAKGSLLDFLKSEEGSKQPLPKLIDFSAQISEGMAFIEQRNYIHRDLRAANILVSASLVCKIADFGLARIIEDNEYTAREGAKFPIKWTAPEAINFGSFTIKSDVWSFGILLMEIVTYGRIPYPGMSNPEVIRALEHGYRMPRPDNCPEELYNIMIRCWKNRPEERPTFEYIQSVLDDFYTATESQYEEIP
UniProt P08103, 76-524 T331A/Q521E/Q522E/Q523I limits assumed: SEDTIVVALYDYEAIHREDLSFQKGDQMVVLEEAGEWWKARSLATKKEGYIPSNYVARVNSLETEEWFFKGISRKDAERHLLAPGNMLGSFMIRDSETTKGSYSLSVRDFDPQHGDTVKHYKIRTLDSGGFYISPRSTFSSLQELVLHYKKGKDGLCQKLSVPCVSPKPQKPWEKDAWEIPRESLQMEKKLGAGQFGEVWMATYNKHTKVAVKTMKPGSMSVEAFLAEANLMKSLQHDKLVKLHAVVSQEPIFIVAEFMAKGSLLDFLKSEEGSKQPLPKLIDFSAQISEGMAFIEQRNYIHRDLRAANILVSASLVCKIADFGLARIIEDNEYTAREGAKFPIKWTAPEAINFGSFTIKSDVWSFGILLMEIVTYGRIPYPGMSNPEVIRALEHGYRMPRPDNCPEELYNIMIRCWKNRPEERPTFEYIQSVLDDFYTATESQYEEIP
UniProt P08103, whole entry E88T/A89S/I90P/H91F/R92P/E93W/T331A/Q521E/Q522E/Q523I, looked up: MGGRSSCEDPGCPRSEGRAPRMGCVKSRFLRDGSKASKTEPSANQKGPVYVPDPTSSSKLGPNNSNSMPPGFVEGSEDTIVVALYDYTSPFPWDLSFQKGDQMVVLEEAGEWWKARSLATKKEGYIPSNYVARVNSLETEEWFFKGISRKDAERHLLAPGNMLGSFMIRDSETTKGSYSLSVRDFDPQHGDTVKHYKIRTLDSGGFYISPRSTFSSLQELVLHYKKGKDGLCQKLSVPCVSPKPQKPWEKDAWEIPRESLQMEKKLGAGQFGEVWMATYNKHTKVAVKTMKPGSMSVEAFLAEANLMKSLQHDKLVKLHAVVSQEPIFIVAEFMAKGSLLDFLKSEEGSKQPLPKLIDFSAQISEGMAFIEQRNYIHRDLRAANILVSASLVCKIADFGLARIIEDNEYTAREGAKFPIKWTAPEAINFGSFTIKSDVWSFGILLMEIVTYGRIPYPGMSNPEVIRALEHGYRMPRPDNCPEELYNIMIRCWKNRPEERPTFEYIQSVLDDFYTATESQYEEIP
UniProt P08103, 76-524 E88T/A89S/I90P/H91F/R92P/E93W/T331A/Q521E/Q522E/Q523I: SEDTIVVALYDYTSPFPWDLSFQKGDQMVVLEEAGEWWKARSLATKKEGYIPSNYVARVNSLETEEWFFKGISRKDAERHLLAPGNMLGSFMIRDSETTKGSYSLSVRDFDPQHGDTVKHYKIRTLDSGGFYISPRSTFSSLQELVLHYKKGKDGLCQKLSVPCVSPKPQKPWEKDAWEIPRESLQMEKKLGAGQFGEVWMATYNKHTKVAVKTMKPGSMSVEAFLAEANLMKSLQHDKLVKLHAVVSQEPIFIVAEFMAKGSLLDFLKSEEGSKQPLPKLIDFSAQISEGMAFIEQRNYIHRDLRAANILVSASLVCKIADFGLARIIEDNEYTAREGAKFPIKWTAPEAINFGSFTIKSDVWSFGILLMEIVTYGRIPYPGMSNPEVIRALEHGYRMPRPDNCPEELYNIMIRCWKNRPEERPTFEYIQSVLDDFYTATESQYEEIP

Tests used:
mHck + Nef-SF2 = target: T1, mHck + Nef-SF2 (Mus musculus, UniProt P08103, Q521E/Q522E/Q523I); assay: Z'-Lyte in vitro kinase assay, mHck + Nef-SF2; format: biochemical; conditions: mHck + Nef-SF2 (10-fold molar excess); ATP at twice the Km; read-out: IC50, NaPP1
T1 construct: the N-terminal unique domain was replaced with a hexahistidine tag; hexahistidine (N); made in house; host or cells: Hck: Sf9 insect cells; Nef: E. coli
Description: (§1) Protein-tyrosine kinase assays were performed using the FRET-based Z'-Lyte kinase assay kit and Tyr-2 peptide substrate according to the manufacturer's instructions (Life Technologies) and our previous work. All assays were performed in quadruplicate in low-volume, non-binding 384-well plates (Corning). To determine the Km for ATP, time course experiments were run at fixed concentrations of substrate (1 μM) and kinase in the presence of an ATP concentration range from 0 to 500 μM. The Km for ATP was then calculated from a plot of ATP concentration against initial reaction velocity followed by non-linear regression analysis (GraphPad Prism). For inhibition experiments, the assay was first optimized to determine the amount of kinase or kinase plus Nef (1:10 molar ratio) necessary to phosphorylate ~50% of the Tyr-2 peptide substrate in the presence of an ATP concentration equal to twice the Km. […] Fluorescence was assessed at an excitation wavelength of 400 nm; coumarin fluorescence and the fluorescein FRET signal were monitored at 445 and 520 nm, respectively. […] Raw fluorescence values were corrected for background, and reaction endpoints calculated as emission ratios of coumarin fluorescence divided by the fluorescein FRET signal. […] IC50 values were calculated using a sigmoidal curve fit using GraphPad Prism. […]

mHck-TA + Nef-SF2 = target: T2, mHck-TA + Nef-SF2 (Mus musculus, UniProt P08103, Q521E/Q522E/Q523I/T331A); assay: Z'-Lyte in vitro kinase assay, mHck-TA + Nef-SF2; format: biochemical; conditions: mHck-TA + Nef-SF2 (10-fold molar excess); ATP at twice the Km; read-out: IC50, NaPP1
T2 construct: the N-terminal unique domain was replaced with a hexahistidine tag; hexahistidine (N); made in house; host or cells: Hck: Sf9 insect cells; Nef: E. coli
Description: as §1

mHck-TA + Nef-Consensus = target: T3, mHck-TA + Nef-Consensus (Mus musculus, UniProt P08103, Q521E/Q522E/Q523I/T331A); assay: Z'-Lyte in vitro kinase assay, mHck-TA + Nef-Consensus; format: biochemical; conditions: mHck-TA + Nef-Consensus (10-fold molar excess); ATP at twice the Km; read-out: IC50, NaPP1
T3 construct: the N-terminal unique domain was replaced with a hexahistidine tag; hexahistidine (N); made in house; host or cells: Hck: Sf9 insect cells; Nef: E. coli
Description: as §1

mHck-TA-HART + Nef-SF2 = target: T4, mHck-TA-HART + Nef-SF2 (Mus musculus, UniProt P08103, A89S/E88T/E93W/H91F/I90P/Q521E/Q522E/Q523I/R92P/T331A); assay: biochemical
T4 construct: the N-terminal unique domain was replaced with a hexahistidine tag; hexahistidine (N); made in house; host or cells: Hck: Sf9 insect cells; Nef: E. coli
Description: as §1

[1] = target: mHck-TA-HART + Nef-Consensus (Mus musculus, UniProt P08103, A89S/E88T/E93W/H91F/I90P/Q521E/Q522E/Q523I/R92P/T331A); assay: Z'-Lyte in vitro kinase assay, mHck-TA-HART + Nef-Consensus; format: biochemical
Description: as §1

## CC(C)(C)n1nc(-c2cccc3ccccc23)c2c(N)ncnc21 [NaPP1, reference compound]
mHck + Nef-SF2
  IC50: > 1000 nM
mHck-TA + Nef-SF2
  IC50: 47.4 ± 6 nM
mHck-TA + Nef-Consensus
  IC50: 37.6 ± 4.6 nM
mHck-TA-HART + Nef-SF2
  IC50: 2.4 ± 0.3 nM
[1]
  IC50: 3.2 ± 0.2 nM
